Measured values from several laboratories, pooled; numbers as filed in NIAID ChemDB.

Shared fields: cytotoxicity tests; cells: HeLa; measure: CC50

Lines come from different laboratories, so protocols vary. CCn: concentration that lowers growth or viability of the cells by n%. Blank or dashed fields: not listed here.

smiles,method,value
C#CCOc1cc(OC)ccc1-c1cc(N(CC)CC)no1,,40 µM
CCOC(=O)c1ccc(OCCCCC(=O)c2ccc(OC)cc2)cc1,,>281 µM
CCOC(=O)[C@@]1(C)CC[C@]2(C)CC[C@]3(C)C(=CC(=O)[C@@H]4[C@@]5(C)CC/C(=N\OCc6ccsc6)C(C)(C)[C@@H]5CC[C@]43C)[C@@H]2C1,MTT,24.85 µM
Fc1ccc2c(c1)CSSC2,MTT,>536.8 µM
COC1=C(OCc2ccc([N+](=O)[O-])cc2)/C(=C/Cn2cnc3c(Cl)ncnc32)OC1=O,,19.32 µM
CC#C[C@]1(O)CC[C@H]2[C@@H]3CCC4=CC(=O)CCC4=C3[C@@H](c3ccc(N(C)C)cc3)C[C@@]21C,MTT,>50 µM
O=c1[nH]cnc2c1ncn2C1C[C@H](CO)[C@@H](CO)C1,,>200 µg/mL
COc1cnc(-n2ccnn2)c2[nH]cc(C(=O)C(=O)N3CCN(C(=O)c4ccccc4)[C@H](C)C3)c12,trypan blue,>100 µM
CCOc1ncn(-c2ccc(NC(=S)Nc3cnccn3)cc2)n1,,20 µg/mL
CC(OC(=O)c1nc(-c2ccccn2)[nH]c(=O)c1O)C1CCCCC1,luminescence,>50 µM
Cc1ccc(C(=O)CCCCCCOc2ccc(C3=N[C@H](C)CO3)cc2)s1,,16 µM
CC1=C(C(=O)OCc2ccccc2)C(c2ccc(Cl)cc2)NC(=O)N1,XTT,>100 µM
COc1cc(C(=O)Oc2c(-c3ccc(Cl)cc3)oc3ccccc3c2=O)cc(OC)c1O,,0.54 µM
CCOC(=O)c1ccc(OCCCCC(=O)c2ccc(F)cc2)cc1,,>290 µM
Cc1cccnc1-c1nc(C(=O)OCC2CCCCC2)c(O)c(=O)[nH]1,luminescence,>50 µM
CSc1ccc(C(=O)CCCCOc2ccc(C#N)cc2)cc1,,307 µM
Cc1ccc(C(=O)CCCCOc2ccc(C3=NCCO3)cc2)s1,,146 µM
c1ccc(COC[C@@H]2CC[C@H](COc3ncnc4nc[nH]c34)O2)cc1,,220 µM
CC(C)(C)C(=O)OCn1nc([C@@H]2O[C@H](CO)[C@@H](O)[C@H]2O)c2ncnc(N)c21,,40 µg/mL
CC(Sc1ncnc2c1cnn2COCC(O)CO)C(N)=O,,>400 µg/mL
O=C(c1ccccc1)c1ccc(Oc2ccc(S(=O)(=O)Cc3ccccc3)cn2)cc1,,>10 µg/mL
O=c1cc(NCc2cccc(F)c2)c2cccnc2n1O,,<100 µM
CC(/C=C/C(=O)O)C(O)C(C)CC(C)C(O)CC(=O)c1ccc(N)cc1,,>100 µg/mL
CC[n+]1c(-c2ccccc2)c2cc(NC(N)=O)ccc2c2ccc(NC(N)=O)cc21,,>10 µM
COc1cc(C(=O)Oc2c(-c3ccc(Cl)cc3)oc3ccccc3c2=O)cc(OC)c1OC(C)=O,,1.02 µM
CCn1cc(C(=O)O)c(=O)c2ccc(C)nc21,,188 µg/mL
CC1(C)[C@@H](CO)CC[C@@]1(C)Cn1nnc2c(=O)[nH]cnc21,,>400 µg/mL
COc1cc(C(=O)Oc2c(-c3ccc(Cl)c(Cl)c3)oc3ccccc3c2=O)ccc1OC(C)=O,,1.07 µM
CCOC(=O)c1c(-c2cc(CCc3ccccc3F)cc(-c3ccc(CN)cc3)c2)c2cccnc2n(O)c1=O,,<100 µM
CCOC(=O)[C@@]1(C)CC[C@]2(C)CC[C@]3(C)C(=CC(=O)[C@@H]4[C@@]5(C)CC/C(=N\OCc6cc(Br)cc(Br)c6)C(C)(C)[C@@H]5CC[C@]43C)[C@@H]2C1,MTT,18.81 µM
CC[n+]1c(-c2ccccc2)c2cc(N)ccc2c2ccc(NC(N)=O)cc21,,>10 µM
CCOC(=O)[C@@]1(C)CC[C@]2(C)CC[C@]3(C)C(=CC(=O)[C@@H]4[C@@]5(C)CC/C(=N\OCc6ccccc6F)C(C)(C)[C@@H]5CC[C@]43C)[C@@H]2C1,MTT,34.96 µM
COc1cnc(-n2cc(Cl)cn2)c2[nH]cc(C(=O)C(=O)N3CCN(C(=O)c4ccccc4)CC3)c12,trypan blue,≤100 µM
COc1ccc(-c2cc(N(C)C)no2)c(O)c1,,>427 µM
Nc1ccc2c(c1)CSSC2,MTT,177.9 µM
O=C(Oc1c(-c2ccc(Cl)cc2)oc2ccccc2c1=O)c1cc(OCc2ccccc2)c(OCc2ccccc2)c(OCc2ccccc2)c1,,1.36 µM
Cc1ccc2c(c1)CSSC2,MTT,226 µM
CCCOc1ncn(-c2ccc(NC(=S)NC3O[C@H](CO)[C@@H](O)[C@H](O)[C@H]3O)cc2)n1,,≥200 µg/mL
Nc1cc(OC[C@H]2CC[C@@H](CO)O2)ncn1,,>250 µM
CC1(C)[C@@H](CO)CC[C@@]1(C)Cn1cc(Br)c(=O)[nH]c1=O,,>400 µg/mL
Cc1ccc(C(=O)CCCCOc2ccc(C#N)cc2)cc1,,146 µM
Nc1ncnc2c1ncn2[C@@H]1C[C@H](CO)[C@@H](O)[C@H]1O,,4 µg/mL
O=c1[nH]c(=O)n([C@H]2C[C@H](O)[C@@H](CO)O2)cc1I,neutral red,45 µg/mL
CC1=C(C(=O)OCc2ccccc2)C(c2ccco2)NC(=O)N1,XTT,>100 µM
CCOC(=O)c1ccc(OCCCCC(=O)c2ccc(SC)cc2)cc1,,>268 µM
Nc1cc(OC[C@H]2CC[C@@H](COCc3ccccc3)O2)nc(N)n1,,>250 µM
COc1cnc(-c2nnnn2C)c2[nH]cc(C(=O)C(=O)N3CCN(C(=O)c4ccccc4)CC3)c12,trypan blue,>100 µM
O=c1cc(O)c2c(-c3cccc(Br)c3)ccnc2n1O,,<100 µM
O=c1[nH]c(=O)n([C@@H]2C[C@H](CO)C[C@H]2CO)cc1I,,>200 µg/mL
COc1cc(C(=O)Oc2c(-c3ccc(Cl)cc3)oc3ccccc3c2=O)ccc1O,,0.49 µM
COc1cnc(-c2n[nH]c(C)n2)c2[nH]cc(C(=O)C(=O)N3CCN(C(=O)c4ccccc4)[C@H](C)C3)c12,trypan blue,>100 µM
Nc1nccc2c1ncn2[C@H]1CC[C@@H](CO)O1,,400 µg/mL
COC(=O)c1ccc2c(c1)CSSC2,MTT,143.6 µM
COc1cnc(-c2cnccn2)c2[nH]cc(C(=O)C(=O)N3CCN(C(=O)c4ccccn4)[C@H](C)C3)c12,trypan blue,>100 µM
O=c1cc(NCCc2ccccc2)c2cccnc2n1O,,<100 µM
CCOc1ncn(-c2ccc(NC(=S)NC34CC5CC(CC(C5)C3)C4)cc2)n1,,200 µg/mL
CS(=O)(=O)c1cccc(Oc2ccc(C(=O)c3ccccc3)cc2)n1,,>10 µg/mL
Cc1ccc(C(=O)CCCCOc2ccc(C3=NC(C)(C)CO3)cc2)s1,,17 µM
O=C(NCC1CC1)c1nc(-c2ccccn2)[nH]c(=O)c1O,luminescence,>50 µM
CCOC(=O)[C@@]1(C)CC[C@]2(C)CC[C@]3(C)C(=CC(=O)[C@@H]4[C@@]5(C)CC/C(=N\OCc6ccc(F)cc6)C(C)(C)[C@@H]5CC[C@]43C)[C@@H]2C1,MTT,29.49 µM
Nc1nccc2c1ncn2[C@@H]1O[C@H](CO)C[C@H]1O,,40 µg/mL
CCCOc1ncn(-c2ccc(NC(=S)Nc3cccc(O)c3)cc2)n1,,100 µg/mL
Nc1ncnc2c1ncn2[C@H]1C[C@@H](CO)[C@H](O)[C@@H]1O,,>400 µg/mL
CCOc1ncn(-c2ccc(NC(=S)NC3O[C@H](CO)[C@@H](O)[C@H](O)[C@H]3O)cc2)n1,,100 µg/mL
CCN(CC)c1cc(-c2ccc(OC)cc2O)on1,,>381 µM
CCC(Sc1ncnc2c1cnn2COCCO)C(N)=O,,>400 µg/mL
Nc1nc(OC[C@H]2CC[C@@H](CO)O2)c2[nH]cnc2n1,,>250 µM
CCOC(=O)[C@@]1(C)CC[C@]2(C)CC[C@]3(C)C(=CC(=O)[C@@H]4[C@@]5(C)CC/C(=N\OCc6cc(F)cc(F)c6)C(C)(C)[C@@H]5CC[C@]43C)[C@@H]2C1,MTT,12.65 µM
Nc1nc(Cl)cc(OC[C@@H]2O[C@H](COCc3ccccc3)[C@@H](OCc3ccccc3)[C@H]2OCc2ccccc2)n1,,104 µM
O=C(CCCCOc1ccc(C2=NCCO2)cc1)c1ccccc1,,51 µM
Nc1nc(Cl)cc(OC[C@H]2CC[C@@H](COCc3ccccc3)O2)n1,,179 µM
COc1cc(C(=O)Oc2c(-c3ccc(Cl)c(Cl)c3)oc3ccccc3c2=O)ccc1O,,3.76 µM
C[C@@H](NC(=O)c1nc(-c2ncccc2C(F)(F)F)[nH]c(=O)c1O)C1CCCCC1,luminescence,>50 µM
CCC(Sc1ncnc2c1cnn2CCCCO)C(N)=O,,>400 µg/mL
CCCCCCCC=O,trypan blue,230 µg/mL
CC(C)Nc1ncnc2c1ncn2C1C[C@H](CO)[C@@H](CO)C1,,>200 µg/mL
Nc1ncnc2c([C@@H]3O[C@H](CO)C[C@H]3O)[nH]nc12,,>400 µg/mL
CCOc1cc(OC)ccc1-c1cc(N(CC)CC)no1,,90 µM
C/C(=C\CC/C(C)=C/Cc1cc(O)cc(C)c1O)CC/C=C(\C)CC[C@@H](C)C(C)(C)O,,8.2 µM
CC(=O)Oc1ccc(/C=C/C(=O)Oc2c(-c3ccc(Cl)c(Cl)c3)oc3ccccc3c2=O)cc1OC(C)=O,,0.86 µM
CC1=C(C(=O)O)C(c2ccc(N)cc2)NC(=O)N1,XTT,>100 µM
Nc1ncnc2c1ncn2[C@@H]1O[C@H](CCl)C[C@H]1O,,200 µg/mL
COc1ccnc2[nH]cc(C(=O)C(=O)N3CCN(C(=O)c4ccccc4)C[C@H]3C)c12,XTT,>100 µM
CC1(C)[C@@H](CO)CC[C@@]1(C)Cn1cnc2c(=O)[nH]cnc21,,>400 µg/mL
CCCOC(=O)C(CCSC[C@H]1O[C@@H](n2ccc3c(N)ncnc32)[C@H](O)[C@@H]1O)NC(C)=O,,100 µg/mL
CS(=O)(=O)c1cccnc1Oc1ccc(C(=O)c2ccccc2)cc1,,>10 µg/mL
CC(=O)c1ccc2c(c1)CSSC2,MTT,163.9 µM
CC(CC(C)C(O)C(C)C(=O)O)C(O)CC(=O)c1ccc(N)cc1,,>100 µg/mL
COC1=C(OC)C(O)(CCn2cnc3c(N)ncnc32)OC1=O,,157 µM
COc1ccc2c(c1)CSSC2,MTT,48.9 µM
C[C@@H](CN[C@H](CN[C@H](CN[C@H](CNCCC(N)=O)Cc1ccc(O)cc1)Cc1ccc(O)cc1)Cc1ccc(O)cc1)NC[C@H](Cc1ccc(O)cc1)NC[C@@H](N)Cc1ccc(O)cc1,MTS,>100 µM
Clc1ccc2c(c1)CSSC2,MTT,69.6 µM
CC1=C(C(=O)O)C(c2ccc(F)cc2)NC(=O)N1,XTT,>100 µM
CCC1COC(c2ccc(OCCCCCCC(=O)c3ccc(C)s3)cc2)=N1,,15 µM
COc1ccc(-c2cc(N3CCCC3)no2)c(O)c1,,>384 µM
CCc1ncn(-c2ncc(OC)c3c(C(=O)C(=O)N4CCN(C(=O)c5ccccc5)CC4)c[nH]c23)n1,trypan blue,>100 µM
CCCCCCS(=O)(=O)c1ccc(Oc2ccc(C(=O)c3ccccc3)cc2)nc1,,>10 µg/mL
N#Cc1ccc(OCCCCC(=O)c2ccc(Cl)cc2)cc1,,319 µM
O=c1cc(N2CCCC(F)C2)c2cccnc2n1O,,<100 µM
CC(C)S(=O)(=O)c1ccc(Oc2ccc(C(=O)c3ccccc3)cc2)nc1,,5 µg/mL

The first 6 rows once more:

smiles | method | value
C#CCOc1cc(OC)ccc1-c1cc(N(CC)CC)no1 |  | 40 µM
CCOC(=O)c1ccc(OCCCCC(=O)c2ccc(OC)cc2)cc1 |  | >281 µM
CCOC(=O)[C@@]1(C)CC[C@]2(C)CC[C@]3(C)C(=CC(=O)[C@@H]4[C@@]5(C)CC/C(=N\OCc6ccsc6)C(C)(C)[C@@H]5CC[C@]43C)[C@@H]2C1 | MTT | 24.85 µM
Fc1ccc2c(c1)CSSC2 | MTT | >536.8 µM
COC1=C(OCc2ccc([N+](=O)[O-])cc2)/C(=C/Cn2cnc3c(Cl)ncnc32)OC1=O |  | 19.32 µM
CC#C[C@]1(O)CC[C@H]2[C@@H]3CCC4=CC(=O)CCC4=C3[C@@H](c3ccc(N(C)C)cc3)C[C@@]21C | MTT | >50 µM